Patent US20030203410A1, “Gestational agents which modulate cell proliferation” (priority 1999, published 2003)

Experiments:
[1] = test system: Herpes Simplex Type I; assay: Inhibition of viral cytopathic effect (visual CPE and neutral red), HSV-1 in MRC-5 cells; format: cell-based, type 1 herpes (HSV-1)
[2] = test system: Vaccinia Virus; format: cell-based; conditions: SI = CC50/EC50
[3] = test system: San Angelo Virus; format: cell-based

SMILES: Nc1nc2c(ncn2COCCO)c(=O)[nH]1 [Acyclovir, acyclovir]
- SI [1]: >167 and >250

SMILES: Nc1ccn(C[C@@H](CO)OCP(=O)(O)O)c(=O)n1 [HPMPC, cidofovir]
- SI ([2]; neutral red assay): >59
- SI ([2]; visual): >18

SMILES: NC(=O)c1ncn([C@@H]2O[C@H](CO)[C@@H](O)[C@H]2O)n1 [Ribavirin, ribavirin]
- SI [3]: 19 and 18

Values joined by “and” are separate entries in the source; they are usually repeats but may differ in a detail not shown here. Equal entries are not always repeated. Where two headings read alike, the source gives them in different places.
